Protein sequences, listed by entry. Tags and fused reporters are not part of them. Lines headed by an entry give the natural chain unless they say otherwise; changes in a name come on top.
UniProt A0A0F6B8D8: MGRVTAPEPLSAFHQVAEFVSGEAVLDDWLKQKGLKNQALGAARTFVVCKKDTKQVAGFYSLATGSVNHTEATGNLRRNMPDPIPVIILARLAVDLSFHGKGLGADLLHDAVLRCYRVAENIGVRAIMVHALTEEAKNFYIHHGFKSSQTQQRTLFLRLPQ

According to publication PMC5959882, “Activity of acetyltransferase toxins involved in Salmonella persister formation during macrophage infection” (2018):

Target: TacT (Salmonella enterica, UniProt A0A0F6B8D8)
Assay: acetylation of aminoacyl-tRNA, acid-urea PAGE autoradiography
Settings: co-substrate aminoacyl-tRNA; 0.2 mM [14C]Ac-CoA in cell-free expression assay; labelled compound

CC(=O)SCCNC(=O)CCNC(=O)[C@H](O)C(C)(C)COP(=O)(O)OP(=O)(O)OC[C@H]1O[C@@H](n2cnc3c(N)ncnc32)[C@H](O)[C@@H]1OP(=O)(O)O
acetylation of aminoacyl-tRNA, acid-urea PAGE autoradiography: purified TacT, TacT2STm, TacT2SEn or TacT3, added from the onset of the assay
